# Measurements from the supplement of paper PMC12637763.
# Several values for one entry are separate records, joined by “and”; a condition that tells them apart may be missing. Equal values may be shown once. This is one part of the list. Env chains of viruses from a treatment-interruption trial, translated from the printed DNA. IC50 / IC80 of two broadly neutralizing antibodies; lower = more sensitive virus; >50 µg/ml means not reached and <0.001 µg/ml is below the lowest dose. No active / inactive call.
# B1: HIV-1 Env, rebound clone, placebo arm (protein)
# chain: MRVKGIKRNCQRLWKWGTMLLGMLMICSAADNLWVTVYYGVPVWKDATTTLFCASDAKGYETEVHNVWATHACVPTDPSPNEVVLENVTENFNMWKNDMVEQMHEDIISLWDQSLKPCVKLTPLCVTLKCTNATSCTSANATKNVRCDATDSSGNTTTNGTQGVTQGVRTETDEIKNCTFNITTSTRENVEGRALFSDLDLVYDSSTQSYRLIRCNTSVITQACPKVSFEPIPIHYCAPAGFAILKCRDKGFNGTGPCKNVSTVQCTHGIRPVVSTHLLLNGSLAEGKVVIRSENFTDNAKTIIVQLKEAVNMTCIRPNNNTRKRMSLGPGKVWYSTGDIIGDIRKAQCNLSSQAWNKTLHQVVAKLREQFENKTIIFKPPPGGDPEILMHNFNCGGEFFYCNSTPLFNTTWLNSTWNSTMDRNSSDTSEITLQCRIKQIINMWQGVGRAMYAPPIKGQIKCSSNITGLLLTRDGGNNITSTNETFRPGGGNMKDNWRSELYKYKVIKIEPLGVAPTKARRRVVQREKRAVGVIGAMFLGFLGAAGSTMGAASLTLTVQARQLLSGIVQQQNNLLKAIEAQQQLLRLTVWGIKQLQARVLAVERYLRDQQLLGIWGCSGKLICTTSVPWNASWSNKSVDDIWGNMTWMQWEREIDNYTGIIYNLLEKSQNQQEKNEQELLELDKWASLWNWFDISNWLWYIKIFIMVVGGLIGLRIVFAVLSVVNRVRQGYSPLSFQTRFPAPRGPDRPEGIEEGGGERDRGRSDRLVTGLLELIWDDLRSLCIFSYHRLSDLLLIAARIVELLGRRGWEVLKYWWNLLQYWSQELKNSAVSLLNATAIAVAEGTDRIIEAVLRIYRAIIHIPTRIRQGLERALL
# B2: HIV-1 Env, rebound clone, placebo arm (protein)
# chain: MKVMEIKKNWQNWWRGGILLLGILMIYSAAGKEDLWVTVYYGVPVWKETTTTLFCASDAKAYETEKHNVWATHACVPTDPNPQEIDLDNVTENFNMWKNNMVEQMHEDIISLWDQSLKPCVKLTPLCVTLSCTDVVINNTNTNTTGPRVENGELKNCSFNITTDIRDRIKKEYATFDKLDVVPINDNITNSTNNATNYILISCNTSTITQACPKVSFEPIPIHYCAPAGYAILKCKDKNFNGTGPCRNVSTVQCTHGIKPVVSTQLLLNGSLAEDEIVIRSENFTNNAKTIIVQLKDPVEINCTRPNNNTRKGIRVGPGRAIYATGQIIGDIRKAYCNISIPKWDDTLKQIVKKLQEQFKNKTIKINQSAGGDPEIVRHTFNCGGEFFYCDTSKLFNSSWDATGNRTENSTRGRSDTFILPCRIKQIVNMWQQVGKAMYAPPVSGLIKCSSNITGLLLTRDGGNSNNTEEIFRPEGGDMRDNWRSELYKYKVVRLEPLGVAPTKAKRRVVQREKRAVGLGVMFLGFLGAAGSTMGAASITLTVQARQLLSGIVQQQNNLLRAIEAQQHMLQLTVWGIKQLQARVLAVERYLKDQQLMGIWGCSGKLICTTAVPWNASWSNRSYNYIWDNMTWMEWEREIDNYTGLIYNLIEESQNQQEKNEKDLLELDKWASLWNWFSITNWLWYIKIFIMIIGGLIGLRIVFTVLSIVNRVRQGYSPLPFQTRFPAPRGPDRPGGTEEEGGEKDRDTSGRLVDGFLALIWVDLRNLCLFSYRHLRDLLLIVARVVELLGRRGWEALKYWWNLLQYWSQELKNSAISLLNATAIAVAEGTDRIIKALQRAGRAILHIPTRIRQGLERALL
# B3: HIV-1 Env, rebound clone, placebo arm (protein)
# chain: MKVKGIRKNYQHLWRWGTMLLGMLMICSAADKLWVTVYYGVPVWKDATTTLFCASDAKAYDTEVHNVWATHACVPTDPDPQEVVLNVTENFNMWKNDMVGQMHEDIISLWDQSLKPCVKLTPLCVTLHCTNATSKNTTGAKNTTSTTNTTGGIEGKIKQEMKNCSFNVTTDIKDKMQRQYALFYKLDIVPIDNNDSYRLISCNTSVITQACPKVSFEPIPIHYCAPAGFAILKCNDKKFNGKGTCNNVSTVQCTHGIRPVVSTQLLLNGSLAEEDVVIRSDNFSDNAKTIIVQLNETVKINCTRPGNNTRKSITMGPGRAFYGTEDIIGDIRKAHCNISREGWNNTLKRVAEKLREKFENRTIVFNHSSGGDPEIVMHSFNCGGEFFYCNTTPLFGSAWNSTWNGNDTTESNSSTITLQCRIKQIINMWQEVGKAMYAPPIKGNIICSSNITGLLLTRDGGKTNETNTTTEIFRPGGGDIRDNWRSELYKYKVVQIEPLGVAPTKAKRRVVQREKRAVTLGAMFLGFLGAAGSTMGAASMMLTVQARQLLSGIVQQQNNLLRAIEAQQHLLQLTVWGIKQLQARVLAVERYLRDQQLLGIWGCSGKLICPTAVPWNASWSNKSLDIIWNNMTWMQWEKEISNYTGLIYSLIEESQNQQEKNEQELLELDKWDSLWNWFSITKWLWYIKIFIMIVGGLIGLRIIFAVLSIVNRVRQGYSPLSLQTLLPAPRGPDRPEGIEEEGGERERDRSGRLVTGLLELIWEDLRSLCLFSYHRLRDLLLITARTVGLLGSRGWEILKYLWNLLQYWSQELKSSAISLFNATAITVAEGTDRVIEVVLRVFRAIRNIPRRIRQGFERALQ
# B4: HIV-1 Env, rebound clone, placebo arm (protein)
# chain: MKVKGIRKNYQHLWRWGTMLLGMLMICSAADKLWVTVYYGVPVWKDATTTLFCASDAKAYDTEVHNVWATHACVPTDPDPQEVVLNVTENFNMWKNDMVGQMHEDIISLWDQSLKPCVKLTPLCVTLHCTNATSKNTTGAKNTTSTTNTTGGIEGKIKQEMKNCSFNVTTDIKDKMQRQYALFYKLDIVPIDNNDSYRLISCNTSVITQACPKVSFEPIPIHYCAPAGFAILKCNDKKFNGKGTCNNVSTVQCTHGIRPVVSTQLLLNGSLAEEDVVIRSDNFSDNAKTIIVQLNETVKINCTRPGNNTRKSITMGPGRAFYGTEDIIGDIRKAHCNISREGWNNTLKRVAEKLREKFENRTIVFNHSSGGDPEIVMHSFNCGGEFFYCNTTPLFGSTWNSTWNGNDTTESNSSTITLQCRIKQIINMWQEVGKAMYAPPIKGNIICSSNITGLLLTRDGGKTNETNTTTEIFRPGGGDIRDNWRSELYKYKVVQIEPLGVAPTKAKRRVVQREKRAVTLGAMFLGFLGAAGSTMGAASMMLTVQARQLLSGIVQQQNNLLRAIEAQQHLLQLTVWGIKQLQARVLAVERYLRDQQLLGIWGCSGKLICPTAVPWNASWSNKSLDIIWNNMTWMQWEKEISNYTGLIYSLIEESQNQQEKNEQELLELDKWDSLWNWFSITKWLWYIKIFIMIVGGLIGLRIIFAVLSIVNRVRQGYSPLSLQTLLPAPRGPDRPEGIEEEGGERERDRSGRLVTGLLELIWEDLRSLCLFSYHRLRDLLLITARTVGLLGSRGWEILKYLWNLLQYWSQELKSSAISLFNATAITVAEGTDRVIEVVLRVFRAIRNIPRRIRQGFERALQ
# B5: HIV-1 Env, rebound clone, placebo arm (protein)
# chain: MKVKGIRKNYQHLWRWGTMLLGMLMICSAADKLWVTVYYGVPVWKDATTTLFCASDAKAYDTEVHNVWATHACVPTDPDPQEVVLNVTENFNMWKNDMVGQMHEDIISLWDQSLKPCVKLTPLCVTLHCTNATSKNTTGAKNTTSTTNTTGGIEGKIKQEMKNCSFNVTTDIKDKMQRQYALFYKLDIVPIDNNDSYRLISCNTSVITQACPKVSFEPIPIHYCAPAGFAILKCNDKKFNGKGTCNNVSTVQCTHGIRPVVSTQLLLNGSLAEEDVVIRSDNFSDNAKTIIVQLNETVKINCTRPGNNTRKSITMGPGRAFYGTEDIIGDIRKAHCNISREGWNNTLKRVAEKLREKFENRTIVFNHSSGGDPEIVVHSFNCGGEFFYCNTTPLFGSTWNSTWNGNDTTESNSSTITLQCRIKQIINMWQEVGKAMYAPPIKGNIICSSNITGLLLTRDGGKTNETNTTTEIFRPGGGDIRDNWRSELYKYKVVQIEPLGVAPTKAKRRVVQREKRAVTLGAMFLGFLGAAGSTMGAASMMLTVQARQLLSGIVQQQNNLLRAIEAQQHLLQLTVWGIKQLQARVLAVERYLRDQQLLGIWGCSGKLICPTAVPWNASWSNKSLDIIWNNMTWMQWEKEISNYTGLIYSLIEESQNQQEKNEQELLELDKWDSLWNWFSITKWLWYIKIFIMIVGGLIGLRIIFAVLSIVNRVRQGYSPLSLQTLLPAPRGPDRPEGIEEEGGERERDRSGRLVTGLLELIWEDLRSLCLFSYHRLRDLLLITARTVGLLGSRGWEILKYLWNLLQYWSQELKSSAISLFNATAITVAEGTDRVIEVVLRVFRAIRNIPRRIRQGFERALQ
# B6: HIV-1 Env, rebound clone, placebo arm (protein)
# chain: MRVKGIKRNCQRLWKWGTMLLGMLMICSAADNLWVTVYYGVPVWKDATTTLFCASDAKGYETEVHNVWATHACVPTDPSPNEVVLENVTENFNMWKNDMVEQMHEDIISLWDQSLKPCVKLTPLCVTLKCTNATSCTSANATKNVRCDATDSSGNTTTNGTQGVTQGVRTETDEIKNCTFNITTSTRENVEGRALFSDLDLVYDSSAQSYRLIRCNTSVITQACPKVSFEPIPIHYCAPAGFAILKCRDKGFNGTGPCKNVSTVQCTHGIRPVVSTHLLLNGSLAEGKVVIRSENFTDNAKTIIVQLAEAVNITCSRPNNNTRKRMSLGPGKVWYSTGDIIGDIRKAHCNLSGSAWNKTLHQVVAKLREQFENKTIIFKPPPGGDPEILMHNFICGGEFFYCNSTPLFNTTWHNSTWNSTMGNTEGSNDTNITLHCRIKQIINMWQGVGRAMYAPPIKGQIRCSSNITGILLTRDGGNNITTSTNETFRPGGGNMKDNWRSELYKYKVIKIEPLGVAPTKARRRVVQREKRAVGVIGAMFLGFLGAAGSTMGAASLTLTVQARQLLSGIVQQQNNLLKAIEAQQQLLRLTVWGIKQLQARVLAVERYLRDQQLLGIWGCSGKLICTTSVPWNASWSNKSVDDIWGNMTWMQWEREIDNYTGIIYNLLEKSQNQQEKNEQELLELDKWASLWNWFDISNWLWYIKIFIMVVGGLIGLRIVFAVLSVVNRVRQGYSPLSFQTRFPAPRGPDRPEGIEEGGGERDRGRSDRLVTGLLELIWDDLRSLCIFSYHRLSDLLLIAARIVELLGRRGWEALKYWWNLLQYWSQELKNSAVSLLNATAIAVAEGTDRIIEAVLRIYRAIIHIPTRIRQGLERALL
# Target: antibody 10-1074
# Test: neutralization IC50; higher = virus less sensitive to the antibody
# Experimental: (§1)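 Pseudovirus bearing the Env chain mixed with antibody, from 50 µg/ml in fivefold dilutions, on TZM-bl reporter cells, in duplicate.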
row,Binder,neutralization IC50
1,B1,0.037 µg/mL
2,B2,0.003 µg/mL
3,B3,4.27 µg/mL
4,B4,3.45 µg/mL
5,B5,3.46 µg/mL
6,B6,0.031 µg/mL and 0.026 µg/mL

# Target: antibody 3BNC117
# Test: as above
# Experimental: as §1
row,Binder,neutralization IC50
1,B1,0.004 µg/mL
2,B2,0.004 µg/mL
3,B3,0.077 µg/mL
4,B4,0.124 µg/mL
5,B5,0.055 µg/mL
6,B6,0.005 µg/mL and 0.006 µg/mL

# Target: antibody 10-1074
# Test: neutralization IC80; higher = virus less sensitive to the antibody
# Experimental: as §1
row,Binder,neutralization IC80
1,B1,0.781 µg/mL
2,B2,0.012 µg/mL
3,B3,39.4 µg/mL
4,B4,31 µg/mL
5,B5,27.7 µg/mL
6,B6,0.236 µg/mL and 0.141 µg/mL

# Target: antibody 3BNC117
# Test: as above
# Experimental: as §1
row,Binder,neutralization IC80
1,B1,0.014 µg/mL
2,B2,0.016 µg/mL
3,B3,0.364 µg/mL
4,B4,0.341 µg/mL
5,B5,0.183 µg/mL
6,B6,0.016 µg/mL and 0.019 µg/mL
